PubChem BioAssay AID1259414, Drosophila RNAi Screening Center, 2018

Purpose: 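Genome-wide screen for host control of endosymbiont load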 (primary screen)
System: Drosophila JW18 cells infected with Wolbachia
Reagents: long dsRNA against Drosophila genes, 0.25 µg dsRNA per well of a 384-well plate
Duration: 5 days
Challenge: cells persistently infected with Wolbachia before knock-down; no added drug
Read-out: 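Imaged fluorescence in situ signal for Wolbachia 23S rRNA per DAPI-counted host cell, given as a robust z-score within each plate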
Reading the numbers: Wolbachia per cell robust z: higher = more Wolbachia per host cell than the plate typical
Rule for the call: 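Hit when robust z is 1.5 or more, or -1.5 or less, in at least two of three replicates; excludes dsRNAs with several or no targets, genes not expressed in JW18 and well A1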
In all, the deposit lists about 24,000 reagents; shown is an unselected part of those with a known target gene and a result. Of all reagents, about 1,210 (5%) were called active. 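Inactive calls also include excluded dsRNAs with several or no targets, genes unexpressed in JW18, and well A1, regardless of score.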 Entries without a mark were called inactive. Names joined by + are all predicted targets of the reagent. No sequences are given here.

Depletion of PpD6 [DRSC00774] resulted in: Wolbachia per cell robust z, rep 1 = 0.187; Wolbachia per cell robust z, rep 2 = 0.2; Wolbachia per cell robust z, rep 3 = 1.41.
PpD6 [DRSC23331] scored Wolbachia per cell robust z, rep 1 = -0.997; Wolbachia per cell robust z, rep 2 = -2.37; Wolbachia per cell robust z, rep 3 = 0.0789.
PpD6 [DRSC41552] scored Wolbachia per cell robust z, rep 1 = 0.926; Wolbachia per cell robust z, rep 2 = 1.06; Wolbachia per cell robust z, rep 3 = 0.904.
Depletion of Ids [DRSC08222] resulted in: Wolbachia per cell robust z, rep 1 = 1.23; Wolbachia per cell robust z, rep 2 = 0.877; Wolbachia per cell robust z, rep 3 = 1.32.
CG13319 [DRSC06356] gave Wolbachia per cell robust z, rep 1 = 0.472; Wolbachia per cell robust z, rep 2 = 0.134; Wolbachia per cell robust z, rep 3 = 0.828.
Against snRNP-U1-70K [DRSC03612] the deposit lists Wolbachia per cell robust z, rep 1 = -3.85; Wolbachia per cell robust z, rep 2 = 1.1; Wolbachia per cell robust z, rep 3 = 0.763.
For snRNP-U1-70K [DRSC22071], the values are Wolbachia per cell robust z, rep 1 = 0.673; Wolbachia per cell robust z, rep 2 = 0.692; Wolbachia per cell robust z, rep 3 = 0.835.
After knock-down of snRNP-U1-70K [DRSC28803], the record shows Wolbachia per cell robust z, rep 1 = 1.85 (active); Wolbachia per cell robust z, rep 2 = 2.72; Wolbachia per cell robust z, rep 3 = 2.11.
For Gk1 [DRSC08533], the values are Wolbachia per cell robust z, rep 1 = -0.0762; Wolbachia per cell robust z, rep 2 = 0.74; Wolbachia per cell robust z, rep 3 = 0.356.
Knock-down of Gk1 [DRSC08534] resulted in: Wolbachia per cell robust z, rep 1 = 0.146; Wolbachia per cell robust z, rep 2 = 0.186; Wolbachia per cell robust z, rep 3 = -1.64.
Knock-down of CG17287 [DRSC06659] came out at: Wolbachia per cell robust z, rep 1 = -3.49; Wolbachia per cell robust z, rep 2 = -0.553; Wolbachia per cell robust z, rep 3 = 0.446.
Against CG9849 [DRSC04573], the entry reads Wolbachia per cell robust z, rep 1 = -0.645; Wolbachia per cell robust z, rep 2 = -5.31; Wolbachia per cell robust z, rep 3 = -0.487.
For msl-1 [DRSC03573], the entry reads Wolbachia per cell robust z, rep 1 = 2.43 (active); Wolbachia per cell robust z, rep 2 = 1.61; Wolbachia per cell robust z, rep 3 = 1.43.
Knock-down of CG16739 [DRSC06621] resulted in: Wolbachia per cell robust z, rep 1 = 0.162; Wolbachia per cell robust z, rep 2 = -1.49; Wolbachia per cell robust z, rep 3 = 0.151.
Knock-down of CG14294 [DRSC14774] resulted in: Wolbachia per cell robust z, rep 1 = 0.693; Wolbachia per cell robust z, rep 2 = 0.0983; Wolbachia per cell robust z, rep 3 = -0.564.

2 entries from above, limited to “Wolbachia per cell robust z, rep 1”:
Gk1 [DRSC08534] = 0.146
CG17287 [DRSC06659] = -3.49

Next records:
PIG-Q [DRSC19138] scored Wolbachia per cell robust z, rep 1 = 1.28; Wolbachia per cell robust z, rep 2 = -0.785; Wolbachia per cell robust z, rep 3 = 0.246.
Against CR44003 + CG44002 [DRSC00523], the values are Wolbachia per cell robust z, rep 1 = -1.94 (active); Wolbachia per cell robust z, rep 2 = -8.91; Wolbachia per cell robust z, rep 3 = -1.22.
After knock-down of CR44003 + CG44002 [DRSC00606] the results were Wolbachia per cell robust z, rep 1 = 0.054; Wolbachia per cell robust z, rep 2 = 0.518; Wolbachia per cell robust z, rep 3 = -1.64.
Knock-down of CR44003 + CG44002 [DRSC25843] came out at: Wolbachia per cell robust z, rep 1 = -0.84; Wolbachia per cell robust z, rep 2 = -1.11; Wolbachia per cell robust z, rep 3 = 0.32.
Depletion of Son [DRSC16400] resulted in: Wolbachia per cell robust z, rep 1 = 0.437; Wolbachia per cell robust z, rep 2 = -1.07; Wolbachia per cell robust z, rep 3 = 0.21.
CG1896 [DRSC15397] gave Wolbachia per cell robust z, rep 1 = 0.711; Wolbachia per cell robust z, rep 2 = 1.54; Wolbachia per cell robust z, rep 3 = -6.71.
CG2924 [DRSC18525] gave Wolbachia per cell robust z, rep 1 = -1.08; Wolbachia per cell robust z, rep 2 = 0.51; Wolbachia per cell robust z, rep 3 = -2.12.
After knock-down of CG2924 [DRSC28336], the screen gave Wolbachia per cell robust z, rep 1 = 0.02; Wolbachia per cell robust z, rep 2 = 0.18; Wolbachia per cell robust z, rep 3 = 0.689.
scb [DRSC05542] gave Wolbachia per cell robust z, rep 1 = 1.91; Wolbachia per cell robust z, rep 2 = 0.651; Wolbachia per cell robust z, rep 3 = 0.402.
scb [DRSC07678] gave Wolbachia per cell robust z, rep 1 = 0.545; Wolbachia per cell robust z, rep 2 = 0.857; Wolbachia per cell robust z, rep 3 = 1.13.
Knock-down of scb [DRSC40708] came out at: Wolbachia per cell robust z, rep 1 = -0.155; Wolbachia per cell robust z, rep 2 = -0.191; Wolbachia per cell robust z, rep 3 = 0.581.
